The compounds below were run on Balamuthia mandrillaris trophozoites (assay: CellTiter-Glo 2.0 trophocidal assay, B. mandrillaris). Conditions: SI = (IC50 A549)/(IC50 Amoeba).
Assay type: cell-based
Description: Pathogenic Balamuthia mandrillaris (CDC:[…]; American Type Culture Collection (ATCC) 50209), a GAE isolate, isolated from a pregnant baboon at the San Diego Zoo in 1986 was donated by Luis Fernando […] University, Mexico [43]. Trophozoites were routinely grown axenically in Balamuthia mandrillaris Itson (BMI) media at 37 °C, 5% CO2 in vented 75 cm^2 tissue culture flasks (Olympus, El Cajon, CA, USA), until the cells were 80-90% confluent. For sub-culturing, 0.25% Trypsin-EDTA (Gibco, Gaithersburg, MD, USA) cell detachment reagent was used to detach the cells from the culture flasks. The cells were collected by centrifugation at 4000 rpm at 4 °C. Complete BMI media is produced by the addition of 10% fetal bovine serum (FBS) and 125 μg of penicillin/streptomycin antibiotics. The trophocidal activity of compounds was assessed using the CellTiter-Glo 2.0 luminescent viability assay (Promega, Madison, WI, USA), as previously described. Trophozoites were routinely cultured as described above and only logarithmic trophozoites were used. […] Inhibitors were assessed for percent inhibition using the criteria of ≤33% growth inhibition (no inhibition), 33-67% growth inhibition (moderate inhibition), and ≥67% growth inhibition (strong inhibition). […] We used this process to reduce the number of potential false positives. […] All assays were incubated at each of the parasites' representative growth temperatures, described above, for 72 h. At the 72 h time point, 25 μL of CellTiter-Glo 2.0 reagent was added to all wells of the 96-well plates using the Biomek NX^P automated workstation. The plates were protected from light and contents were mixed using an orbital shaker at 300 rpm at room temperature for 2 min to induce cell lysis. After shaking, the plates were equilibrated at room temperature for 10 min to stabilize the luminescent signal. The adenosine triphosphate (ATP) luminescent signal (relative light units; RLUs) was measured at 490 nm with a SpectraMax I3X plate reader (Molecular Devices, Sunnyvale, CA, USA). Drug inhibitory concentration (IC50) curves were generated using total ATP RLUs, where controls were calculated as the average of replicates using the Levenberg-Marquardt algorithm, using DMSO as the normalization control, as defined in Collaborative Drug Discovery Inc. (CDD) Vault (Burlingame, CA, USA). Values reported are from a minimum of two biological replicates with standard deviations.
For `CCc1nc(N)nc(N)c1C#CC(C)c1cc(OC)cc(-c2ccncc2)c1` (stereo not drawn) [MMV1580844], the “Selectivity Index (A549 IC50/B. mandrillaris IC50)” value was at least 19.10.
In the case of `O=C1C=C(c2ccccc2)S(=O)(=O)c2ccccc21` [1,1-dioxide 1-thioflavone], the “Selectivity Index (A549 IC50/B. mandrillaris IC50)” value is reported as at least 27.40.
In the case of `Cc1ccc(N2CCC(CCOc3ccc(S(C)(=O)=O)cc3)CC2)nn1` [MMV1634394], the “Selectivity Index (A549 IC50/B. mandrillaris IC50)” value is reported as at least 1.24.
For `Cc1nc2ccc(Oc3ccccc3)cc2c2c1CCN2CCc1ccccc1` [MMV1634399], the “Selectivity Index (A549 IC50/B. mandrillaris IC50)” value was at least 13.70.
In the case of `Nc1nc(N)c2c(Sc3ccccc3)cccc2n1` [MMV021759], the “Selectivity Index (A549 IC50/B. mandrillaris IC50)” value is reported as at least 2.22.
`Cc1cccc(C)c1C(=O)Nc1nc(-c2ccccn2)cc2ccccc12` [MMV1581558] was tested, and the “Selectivity Index (A549 IC50/B. mandrillaris IC50)” value was at least 5.00.
In the case of `C(=C\c1nc2ccccc2[nH]1)/c1ccc2c(c1)OCO2` [MMV1582495], the “Selectivity Index (A549 IC50/B. mandrillaris IC50)” value is reported as at least 18.50.

Each compound was assayed on Naegleria fowleri trophozoites (assay: CellTiter-Glo 2.0 trophocidal assay, N. fowleri). Conditions: SI = (IC50 A549)/(IC50 Amoeba).
Assay type: cell-based
Description: Pathogenic Naegleria fowleri (ATCC 30215), a clinical isolate obtained from a child in Adelaide, Australia, that died of PAM in 1969 was previously purchased from the American Type Culture Collection (ATCC). Trophozoites were routinely grown axenically at 34 °C in Nelson’s complete medium (NCM) in non-vented 75 cm^2 tissue culture flasks (Olympus, El Cajon, CA, USA), until the cells were 80–90% confluent. For sub-culturing, cells were placed on ice to detach the cells from the culture flasks. The cells were collected by centrifugation at 4000 rpm at 4 °C. Complete NCM media is produced by the addition of 10% FBS and 125 μg of penicillin/streptomycin antibiotics.
The trophocidal activity of compounds was assessed using the CellTiter-Glo 2.0 luminescent viability assay (Promega, Madison, WI, USA), as previously described. Trophozoites were routinely cultured as described above and only logarithmic trophozoites were used. In brief, B. mandrillaris, N. fowleri, or A. castellanii trophozoites cultured in their corresponding media were seeded at 16,000, 3000, or 1440 cells/well into white 96-well plates (Costar 3370), respectively. Initially all compounds were assessed in a single-point drug screen at 10 and 1 μM, as previously described. […] Control wells were supplemented with 0.1% (10 μM screening plate) or 0.01% (1 μM screening plate) DMSO, as the negative controls, or 12.5 μM of chlorhexidine, as the positive control. Following the single-point assays at 10 and 1 µM, we prioritized compounds for progression to IC50 determinations. […] We used this process to reduce the number of potential false positives. Drugs were cherry-picked, dissolved in the media specific to each parasite, and assessed in twofold serial dilutions from the highest concentration of 10 μM. All assays were incubated at each of the parasites’ representative growth temperatures, described above, for 72 h. At the 72 h time point, 25 μL of CellTiter-Glo 2.0 reagent was added to all wells of the 96-well plates using the Biomek NX^P automated workstation. The plates were protected from light and contents were mixed using an orbital shaker at 300 rpm at room temperature for 2 min to induce cell lysis. After shaking, the plates were equilibrated at room temperature for 10 min to stabilize the luminescent signal. The adenosine triphosphate (ATP) luminescent signal (relative light units; RLUs) was measured at 490 nm with a SpectraMax I3X plate reader (Molecular Devices, Sunnyvale, CA, USA). Drug inhibitory concentration (IC50) curves were generated using total ATP RLUs, where controls were calculated as the average of replicates using the Levenberg–Marquardt algorithm, using DMSO as the normalization control, as defined in Collaborative Drug Discovery Inc. (CDD) Vault (Burlingame, CA, USA). Values reported are from a minimum of two biological replicates with standard deviations.
In the case of `Nc1nc(Nc2ccc3nc(-c4ccc(F)cc4)cc(N)c3c2)cc(-c2ccccc2)n1` [MMV1593541], the “Selectivity Index (A549 IC50/N. fowleri IC50)” value is reported as 0.43.
With `C=CCN(C(=O)OCc1ccc([N+](=O)[O-])cc1)C1CCN(CC[C@](C)(CN(C)S(=O)(=O)c2ccccc2)c2ccccc2)CC1` [MMV1782214] the “Selectivity Index (A549 IC50/N. fowleri IC50)” value was at least 1.27.
`COc1ccc2sc3c(c2c1)NC(C)CNC3=O` (stereo not drawn) [MMV1782115] was tested, and the “Selectivity Index (A549 IC50/N. fowleri IC50)” value was 0.62.
With `CCC(C)NCC(O)Cn1c2ccc(Cl)cc2c2cc(Cl)ccc21` (stereo not drawn) [MMV1578570] the “Selectivity Index (A549 IC50/N. fowleri IC50)” value was at least 1.56.
In the case of `O=C1C=C(c2ccccc2)S(=O)(=O)c2ccccc21` [1,1-dioxide 1-thioflavone], the “Selectivity Index (A549 IC50/N. fowleri IC50)” value is reported as at least 2.00.
`O[C@@](Cn1cnnn1)(c1ccc(F)cc1F)C(F)(F)c1ccc(-c2ccc(OCC(F)(F)F)cc2)cn1` [MMV1634386] was tested, and the “Selectivity Index (A549 IC50/N. fowleri IC50)” value was at least 4.18.
For `CN1c2ccc(Cl)cc2N(c2ccccc2)C(=O)c2cn(Cc3ccc(CN4CCOCC4)cc3)nc21` [MMV1782222], the “Selectivity Index (A549 IC50/N. fowleri IC50)” value was at least 1.85.
For `O=C(Nc1cccc(C2=NCCN2)c1)c1ccc(-c2ccc(C(=O)Nc3cccc(C4=NCCN4)c3)cc2)cc1` [MMV1580853], the “Selectivity Index (A549 IC50/N. fowleri IC50)” value was at least 2.02.
In the case of `CCOC(=O)Nc1cc(NC(C)CC(C)CN(CC)CC)c2nc(-c3ccccc3)c(-c3ccccc3)nc2n1` (stereo not drawn) [MMV1633967], the “Selectivity Index (A549 IC50/N. fowleri IC50)” value is reported as at least 1.22.
In the case of `Clc1cc(Cl)c2c(c1)CCc1ccccc1C2n1ccnc1` (stereo not drawn) [Eberconazole], the “Selectivity Index (A549 IC50/N. fowleri IC50)” value is reported as at least 8.23.
`O=C(/C(=C/c1ccc(Cl)cc1Cl)n1ccnc1)c1ccc(Cl)cc1` [MMV1634491] was tested, and the “Selectivity Index (A549 IC50/N. fowleri IC50)” value was at least 1.94.
In the case of `Oc1c(C(Nc2nc3ccccc3s2)c2ccc(OC(F)F)cc2)ccc2cccnc12` (stereo not drawn) [MMV019724], the “Selectivity Index (A549 IC50/N. fowleri IC50)” value is reported as 1.03.

The compounds below were run on Acanthamoeba castellanii trophozoites (assay: CellTiter-Glo 2.0 trophocidal assay, A. castellanii). Conditions: SI = (IC50 A549)/(IC50 Amoeba).
Assay type: cell-based
Description: This isolate was also purchased from ATCC. Trophozoites were routinely grown axenically at 27 °C in Protease Peptone-Glucose Media (PG) in non-vented 75 cm^2 tissue culture flasks (Olympus, El Cajon, CA, USA), until the cells were 80–90% confluent. For sub-culturing, cells were mechanically harvested to detach the cells from the culture flasks. The cells were collected by centrifugation at 4000 rpm at 4 °C.
The trophocidal activity of compounds was assessed using the CellTiter-Glo 2.0 luminescent viability assay (Promega, Madison, WI, USA), as previously described. Trophozoites were routinely cultured as described above and only logarithmic trophozoites were used. […] Initially all compounds were assessed in a single-point drug screen at 10 and 1 μM, as previously described. […] We used this process to reduce the number of potential false positives. Drugs were cherry-picked, dissolved in the media specific to each parasite, and assessed in twofold serial dilutions from the highest concentration of 10 μM. All assays were incubated at each of the parasites’ representative growth temperatures, described above, for 72 h. At the 72 h time point, 25 μL of CellTiter-Glo 2.0 reagent was added to all wells of the 96-well plates using the Biomek NX^P automated workstation. The plates were protected from light and contents were mixed using an orbital shaker at 300 rpm at room temperature for 2 min to induce cell lysis. After shaking, the plates were equilibrated at room temperature for 10 min to stabilize the luminescent signal. The adenosine triphosphate (ATP) luminescent signal (relative light units; RLUs) was measured at 490 nm with a SpectraMax I3X plate reader (Molecular Devices, Sunnyvale, CA, USA). Drug inhibitory concentration (IC50) curves were generated using total ATP RLUs, where controls were calculated as the average of replicates using the Levenberg–Marquardt algorithm, using DMSO as the normalization control, as defined in Collaborative Drug Discovery Inc. (CDD) Vault (Burlingame, CA, USA). Values reported are from a minimum of two biological replicates with standard deviations.
`C[C@H](c1cccc2ccccc12)N(C)Cc1ccccc1` [MMV1782221] was tested, and the “Selectivity Index (A549 IC50/A. castellanii IC50)” value was at least 2.26.
For `O[C@@](Cn1cnnn1)(c1ccc(F)cc1F)C(F)(F)c1ccc(-c2ccc(OCC(F)(F)F)cc2)cn1` [MMV1634386], the “Selectivity Index (A549 IC50/A. castellanii IC50)” value was at least 10.
`O=[N+]([O-])/C(Br)=C/c1ccc(Br)o1` [Furvina] was tested, and the “Selectivity Index (A549 IC50/A. castellanii IC50)” value was at least 2.38.
With `Clc1cc(Cl)c2c(c1)CCc1ccccc1C2n1ccnc1` (stereo not drawn) [Eberconazole] the “Selectivity Index (A549 IC50/A. castellanii IC50)” value was at least 2.70.
`O=C(/C(=C/c1ccc(Cl)cc1Cl)n1ccnc1)c1ccc(Cl)cc1` [MMV1634491] was tested, and the “Selectivity Index (A549 IC50/A. castellanii IC50)” value was at least 2.99.

Reference: publication PMC7344389, “Discovery of Anti-Amoebic Inhibitors from Screening the MMV Pandemic Response Box on Balamuthia mandrillaris, Naegleria fowleri, and Acanthamoeba castellanii” (Pathogens, 2020)
